Measured values from several laboratories, pooled; numbers as filed in NIAID ChemDB.

Common to all: whole-cell or culture tests; organism: Mycobacterium avium; measure: MIC

Neighbouring rows are from separate reports. Blank or dashed fields: not listed here.

{"SMILES": "CO[C@H]1/C=C/O[C@@]2(C)Oc3c(C)c(O)c4c(O)c(c(/C=N/N5CCN(C)CC5)c(O)c4c3C2=O)NC(=O)/C(C)=C\\C=C\\[C@H](C)[C@H](O)[C@@H](C)[C@@H](O)[C@@H](C)[C@H](OC(C)=O)[C@@H]1C", "strain": "1435-C clarithromycin-resistant", "result": "2 µg/mL"}
{"SMILES": "CO[C@H]1/C=C/O[C@@]2(C)Oc3c(C)c(O)c4c(O)c(c5c(c4c3C2=O)NC2(CCN(CC(C)C)CC2)N=5)=NC(=O)/C(C)=C\\C=C\\[C@H](C)[C@H](O)[C@@H](C)[C@@H](O)[C@@H](C)[C@H](OC(C)=O)[C@@H]1C", "strain": "Isolate 90-1815", "result": "0.2 µg/mL"}
{"SMILES": "CC[C@H]1OC(=O)[C@H](C)[C@@H](O[C@H]2C[C@@](C)(OC)[C@@H](O)[C@H](C)O2)[C@H](C)[C@@H](O[C@@H]2O[C@H](C)C[C@H](N(C)C)[C@H]2O)[C@](C)(O)C[C@@H](C)CN(C)[C@H](C)[C@@H](O)[C@]1(C)O", "strain": "3011-C clarithromycin-resistant", "result": ">512 µg/mL"}
{"SMILES": "CO[C@H]1/C=C/O[C@@]2(C)Oc3c(C)c(O)c4c(O)c(c5c(c4c3C2=O)NC2(CCN(CC(C)C)CC2)N=5)=NC(=O)/C(C)=C\\C=C\\[C@H](C)[C@H](O)[C@@H](C)[C@@H](O)[C@@H](C)[C@H](OC(C)=O)[C@@H]1C", "strain": "6-13", "result": "<0.15 µg/mL"}
{"SMILES": "CC1CN(c2c(F)c(N)c3c(=O)c(C(=O)O)cn(C4CC4)c3c2F)CCN1C", "strain": "RG1", "result": "0.25 µg/mL"}
{"SMILES": "NC(=S)c1cc(SCc2ccncc2)ccn1", "strain": "MY330/88", "result": "62.5 µM"}
{"SMILES": "O=C(Nc1ccccc1)c1ccccc1OP(=O)(c1ccccc1)c1ccccc1", "strain": "MY330/88", "conditions": "14 d", "result": "125 µM"}
{"SMILES": "c1ccc(CSc2nc3ccccc3[nH]2)nc1", "strain": "MY330/88", "result": "1000 µM"}
{"SMILES": "CCn1cc(C(=O)O)c(=O)c2ccc(N3CC(O)C(O)C(O)C3)nc21", "strain": "PI2/6", "result": ">32 µg/mL"}
{"SMILES": "O=C(Nc1ccc(Cl)cc1)c1ccccc1O", "strain": "MY330/88", "result": "31 µM"}
{"SMILES": "CC[C@H]1OC(=O)[C@H](C)[C@@H](O[C@H]2C[C@@](C)(OC)[C@@H](O)[C@H](C)O2)[C@H](C)[C@@H](O[C@@H]2O[C@H](C)C[C@H](N(C)C)[C@H]2O)[C@](C)(OC)C[C@@H](C)C(=O)[C@H](C)[C@@H](O)[C@]1(C)O", "strain": "1102", "method": "broth dilution / radiometric", "conditions": "pH 7.4", "result": "0.5 µg/mL"}
{"SMILES": "N#Cc1cc(SCc2cccc3ccccc23)ccn1", "strain": "MY330/88", "result": ">125 µM"}
{"SMILES": "CC(C)(C)n1cc(C(=O)O)c(=O)c2cc(F)c(N3CCNCC3)nc21", "strain": "PI2/8", "result": "0.12 µg/mL"}
{"SMILES": "N[C@@H]1CONC1=O", "strain": "453", "result": "16 µg/mL"}
{"SMILES": "O=C1c2cc(Cl)ccc2OP(=O)(c2ccccc2)N1c1ccc(Cl)c(Cl)c1", "strain": "MY330/88", "conditions": "14 d", "result": "16 µM"}
{"SMILES": "O=C(O)c1cn(C2CC2)c2c(F)c(N3CCN4CCC3C4)c(F)cc2c1=O", "strain": "RG0", "result": "0.5 µg/mL"}
{"SMILES": "NC(=S)c1cc(SCc2ccccn2)ccn1", "strain": "MY330/88", "result": "250 µM"}
{"SMILES": "O=C(Nc1ccc(Cl)c(Cl)c1)c1ccccc1O", "strain": "MY330/88", "result": "31 µM"}
{"SMILES": "O=C1c2ccccc2OP(=O)(c2ccccc2)N1c1ccccc1", "strain": "MY330/88", "conditions": "7 d", "result": ">500 µM"}
{"SMILES": "N#Cc1cc(SCc2cccnc2)ccn1", "strain": "MY330/88", "result": "1000 µM"}
{"SMILES": "O=c1oc2ccccc2c(=O)n1-c1ccc(Cl)cc1", "strain": "MY330/88", "result": "62 µM"}
{"SMILES": "O=C(Nc1ccc(Cl)cc1)c1cc(Cl)ccc1OP(=O)(Oc1ccccc1)c1ccccc1", "strain": "MY330/88", "conditions": "7 d", "result": "16 µM"}
{"SMILES": "c1ccc2c(CSc3nc4ccccc4o3)cccc2c1", "strain": "MY330/88", "result": "250 µM"}
{"SMILES": "CC[C@H]1OC(=O)[C@H](C)[C@@H](O[C@H]2C[C@@](C)(OC)[C@@H](O)[C@H](C)O2)[C@H](C)[C@@H](O[C@@H]2O[C@H](C)C[C@H](N(C)C)[C@H]2O)[C@](C)(OC)C[C@@H](C)C(=O)[C@H](C)[C@@H](O)[C@]1(C)O", "strain": "SMD", "result": "0.12 µg/mL"}
{"SMILES": "NC1CCCCN(c2c(F)cc3c(=O)c(C(=O)O)cn(C4CC4)c3c2F)C1=O", "strain": "PI2/8", "result": "0.25 µg/mL"}
{"SMILES": "O=C(Nc1ccc(C(F)(F)F)cc1)c1cc(Cl)ccc1OP(=O)(Oc1ccccc1)Oc1ccccc1", "strain": "MY330/88", "conditions": "7 d", "result": "8 µM"}
{"SMILES": "Cc1ccc(NC(=O)c2ccccc2N)cc1C", "strain": "MY330/88", "result": "125 µM"}
{"SMILES": "CC[C@@H](CO)NCCN[C@@H](CC)CO", "strain": "453-C clarithromycin-resistant", "result": ">8 µg/mL"}
{"SMILES": "O=C(Nc1ccc([N+](=O)[O-])cc1)c1ccccc1O", "strain": "MY330/88", "result": "31 µM"}
{"SMILES": "c1ccc(CSc2nc3ccccc3s2)nc1", "strain": "MY330/88", "result": "125 µM"}
{"SMILES": "O=C(Nc1ccc(Cl)cc1)c1cc(Cl)ccc1OP(=O)(c1ccccc1)c1ccccc1", "strain": "MY330/88", "conditions": "7 d", "result": "16 µM"}
{"SMILES": "CCn1cc(C(=O)O)c(=O)c2cc(F)c(N3CCC(CNCCO)C3)c(F)c21", "strain": "PI4/44", "result": "32 µg/mL"}

Again, the opening 2 rows:

SMILES | strain | method | conditions | result
CO[C@H]1/C=C/O[C@@]2(C)Oc3c(C)c(O)c4c(O)c(c(/C=N/N5CCN(C)CC5)c(O)c4c3C2=O)NC(=O)/C(C)=C\C=C\[C@H](C)[C@H](O)[C@@H](C)[C@@H](O)[C@@H](C)[C@H](OC(C)=O)[C@@H]1C | 1435-C clarithromycin-resistant |  |  | 2 µg/mL
CO[C@H]1/C=C/O[C@@]2(C)Oc3c(C)c(O)c4c(O)c(c5c(c4c3C2=O)NC2(CCN(CC(C)C)CC2)N=5)=NC(=O)/C(C)=C\C=C\[C@H](C)[C@H](O)[C@@H](C)[C@@H](O)[C@@H](C)[C@H](OC(C)=O)[C@@H]1C | Isolate 90-1815 |  |  | 0.2 µg/mL